Compound potency records, mixed from different reports. Data source: NIAID ChemDB in PubChem.

Blank or dashed fields: not listed here. ICn: concentration for n% inhibition. Percent inhibition refers to the dose given; in toxicity tests it is the harm to the cells. Conditions beyond the fields shown may differ between rows. MIC bound: limit read from a one-dose screen.

CN(C)c1cc2nc3ccccc3nc2cc1O ; dose: 12.5 µg/mL ; measure: inhibition ; agent: Mycobacterium tuberculosis ; test: culture ; strain: H37Rv ; method: BACTEC ; value: 99%
O=S(=O)([O-])c1ccc(N/N=C/c2ccc(/C=N/Nc3ccc(S(=O)(=O)[O-])cc3)cc2)cc1.[Na+].[Na+] ; measure: MIC ; agent: Mycobacterium tuberculosis ; test: culture ; strain: H37Rv ; value: >100 µg/mL
CC(=O)c1ccccc1-c1cncc(N2CCN(c3ccc(F)cc3F)CC2)n1 ; dose: 1 µM ; measure: inhibition ; agent: Cytomegalovirus ; test: target ; protein: UL97 kinase ; value: <50%
Nc1nccnc1C(=O)NO ; measure: MIC bound ; agent: Mycobacterium tuberculosis ; test: culture ; strain: H37Rv ; method: BACTEC ; value: >12.5 µg/mL
Nc1c(O)cc(S(=O)(=O)O)c2ccccc12 ; measure: MIC ; agent: Mycobacterium tuberculosis ; test: culture ; strain: H37Rv ; value: 50 µg/mL
COc1ccccc1N1CCN(c2cncc(-c3ccsc3)n2)CC1 ; measure: IC50 ; agent: Cytomegalovirus ; test: target ; protein: UL97 kinase ; value: <100 µM
CCOC(=O)C(=NNc1cccc(Cl)c1)C(=O)OCC ; measure: MIC ; agent: Mycobacterium tuberculosis ; test: culture ; strain: H37Rv ; value: 100 µg/mL
COc1cccc(N2CCN(c3cncc(-c4ccc5ccccc5c4)n3)CC2)c1 ; dose: 1 µM ; measure: inhibition ; agent: Cytomegalovirus ; test: target ; protein: UL97 kinase ; value: <50%
CCOC(=O)c1ccccc1N=Nc1ccc(O)c(C(=O)O)c1 ; measure: MIC ; agent: Mycobacterium tuberculosis ; test: culture ; strain: H37Rv ; value: >100 µg/mL
OCc1ccc(-c2cncc(N3CCN(c4ccccc4F)CC3)n2)cc1 ; measure: IC50 ; agent: Cytomegalovirus ; test: target ; protein: UL97 kinase ; value: <10 µM
COC(=O)N[C@H](C(=O)N[C@@H](Cc1ccccc1)[C@@H](O)CN(Cc1ccc(-c2ccccc2)cc1)NC(=O)[C@@H](NC(=O)OC)C(C)(C)C)C(C)(C)C ; dose: 6.25 µg/mL ; measure: inhibition ; agent: Mycobacterium tuberculosis ; test: culture ; strain: H37Rv ; method: resazurin ; value: 15%
CCCCCCCCCCCCCCCCN.Cl ; measure: MIC ; agent: Mycobacterium tuberculosis ; test: culture ; strain: H37Rv ; value: 100 µg/mL
COc1cc2c(cc1OC)-c1c3c(cc4c1[C@@H](C2)N(C)CC4)OCO3 ; measure: MIC ; agent: Mycobacterium tuberculosis ; test: culture ; strain: H37Rv ; method: BACTEC ; value: ≥12.5 µg/mL
O=C(O)COc1ccc([As](=O)(O)O)cc1 ; measure: MIC ; agent: Mycobacterium tuberculosis ; test: culture ; strain: H37Rv ; value: >100 µg/mL
Fc1ccc(N2CCCCC2)c(NC(=S)c2ccncc2)c1 ; dose: 10 µM ; measure: inhibition ; test: host protein ; protein: PASK ; method: kinase activity ; value: 15%
O=C(Cc1c[nH]c2ccccc12)N=Nc1c(O)[nH]c2ccccc12 ; measure: MIC ; agent: Mycobacterium tuberculosis ; test: culture ; strain: H37Rv ; method: BACTEC ; value: ≥12.5 µg/mL
Oc1ccc(Cl)c(O)c1 ; measure: MIC ; agent: Mycobacterium tuberculosis ; test: culture ; strain: H37Rv ; value: 50 µg/mL
NC(=O)c1nc([C@@H]2O[C@H](CO)[C@@H](O)[C@H]2O)cs1 ; dose: 12.5 µg/mL ; measure: inhibition ; agent: Mycobacterium tuberculosis ; test: culture ; strain: H37Rv ; method: BACTEC ; value: -2%
COc1ccccc1N1CCN(c2cncc(-c3ccc(F)cc3)n2)CC1 ; dose: 1 µM ; measure: inhibition ; agent: Cytomegalovirus ; test: target ; protein: UL97 kinase ; value: <50%
NC(=S)[S-].[NH4+] ; measure: MIC ; agent: Mycobacterium tuberculosis ; test: culture ; strain: H37Rv ; method: BACTEC ; value: ≥12.5 µg/mL
CC(=O)c1ccc(N2CCN(c3cncc(-c4ccoc4)n3)CC2)cc1 ; dose: 1 µM ; measure: inhibition ; agent: Cytomegalovirus ; test: target ; protein: UL97 kinase ; value: <50%

Repeating the first 3 entries:

| SMILES | dose | measure | agent | test | strain | protein | method | value |
|---|---|---|---|---|---|---|---|---|
| CN(C)c1cc2nc3ccccc3nc2cc1O | 12.5 µg/mL | inhibition | Mycobacterium tuberculosis | culture | H37Rv | - | BACTEC | 99% |
| O=S(=O)([O-])c1ccc(N/N=C/c2ccc(/C=N/Nc3ccc(S(=O)(=O)[O-])cc3)cc2)cc1.[Na+].[Na+] | - | MIC | Mycobacterium tuberculosis | culture | H37Rv | - | - | >100 µg/mL |
| CC(=O)c1ccccc1-c1cncc(N2CCN(c3ccc(F)cc3F)CC2)n1 | 1 µM | inhibition | Cytomegalovirus | target | - | UL97 kinase | - | <50% |